Source: ChEMBL document CHEMBL1150726, “New macrocyclic trichothecenes from Baccharis megapotamica” (1987)

Assays:
P388 [1] = experiment: In vivo antitumor activity against mouse P388 cells at 1 mg/kg relative to control
P388 [2] = experiment: In vivo antitumor activity against mouse P388 cells at 5 mg/kg relative to control
P388 [3] = experiment: In vivo antitumor activity against mouse P388 cells at 0.8 mg/kg relative to control
P388 [4] = experiment: In vivo antitumor activity against mouse P388 cells at 0.62 mg/kg relative to control

For CC1=C[C@H]2O[C@@H]3C[C@H]4OC(=O)/C=C\C=C\[C@H]([C@H](C)O)OC[C@H](O)[C@@H](C)CC(=O)OC[C@@]2(C[C@H]1O)[C@]4(C)[C@@]31CO1, the T/C (P388 [1]) was 203%.
For CC1=C[C@H]2O[C@@H]3C[C@H]4OC(=O)/C=C\C=C\[C@H]([C@H](C)O)OCC[C@@H](C)[C@H](O)C(=O)OC[C@@]2(C[C@H]1O)[C@]4(C)[C@@]31CO1, the T/C (P388 [2]) was 250%.
CC1=C[C@H]2O[C@@H]3C[C@H]4OC(=O)/C=C\C=C\[C@H]([C@@H](C)O)OC[C@H](O)[C@@H](C)CC(=O)OC[C@@]2(C[C@H]1O)[C@]4(C)[C@@]31CO1 showed a T/C (P388 [3]) of 175%.
With CC1=C[C@H]2O[C@@H]3C[C@H]4OC(=O)/C=C\C=C\[C@H]([C@@H](C)O)OCC[C@@H](C)[C@H](O)C(=O)OC[C@@]2(C[C@H]1O)[C@]4(C)[C@@]31CO1 the T/C (P388 [4]) was 196%.
